Results: US20160305948A1 (GOVEMMENT OF THE US AS REPRESENTED BY THE SECRETARY OF THE …, published 2016)

Target: ricin A chain (UniProt P02879 36-302)

B1: c8-GS-3k (VHH)
VHH: EVQLQASGGGLVQGGDSLRLSCAASGRTLGDYGVAWFRQAPGKEREFVSVISRSTIITDYANSVKGRFTISRDNAKNAVYLQMNSLKPEDTAVYYCAVIANPVYATSRNSDDYGHWGQGTQVTVSS
fold signal increase against C8 sdAb: 1.4 fold
